Source: publication PMC5225317

Amino acid sequences for entries named in this document (tags omitted). A change or cut given only in a name is not applied to a line headed by its entry.
UniProt Q5X982: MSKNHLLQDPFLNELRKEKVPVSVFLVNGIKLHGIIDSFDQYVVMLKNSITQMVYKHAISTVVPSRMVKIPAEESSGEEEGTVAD

Target: Hfq (Hfq6XHis) (Legionella pneumophila strain Paris) (UniProt Q5X982)
Test: EMSA
Details: recombinant protein; residues 1-85; protein details: 6xHis; label: 33P-UTP internal label; probe letters rebuilt from the primers and the genome

Row | Sequence | binding result
1 | GGCGCAAUUCAUUUAGGAAAGGGUCUUGUAGUAAAUGAUUUUUAGACAUUGCCUACUCCUUGUUGUUAUUGUAAUUUUUAAAGGCAAAAACGGGUAUCUAACU [Anti-hfq sRNA] | binds
2 | GGGAUAGGGUGUCGAAUAAAUAGUUAGAUACCCGUUUUUGCCUUUAAAAAUUACAAUAACAACAAGGAGUAGGCAAUGUCUAAAAAUCAUUUACUACAAGACCCUUUCCUAAAUGAAUUGCGCAAGGAAAAGGUACCUGUUUCAGUGUUCCUGGUCAAUGGUAUUAAAUUGCAUGGGAUAAUCGAUUCUUUUGAUCAAUAUGUGGUGAUGCUUAAAAACUCCAUAACCCAAAUGGUUUAUAAACACGCCAUUUCAACAGUUGUUCCUUCUCGAAUGGUCAAAAUUCCUGCUGAGGAAAGCUCUGGUGAGGAAGAAGGAACUGUGGCAGACUAAUCAA [hfq mRNA (full transcript)] | binds

The exact form of at least one protein or probe is not confirmed.
